Source: the supplement of paper PMC9931576
Human monoclonal antibodies against the spike receptor-binding domain (heavy:light variable regions). IC50 against pseudoviruses bearing the spike of naturally observed variants; lower = stronger; >10 µg/ml means not reached at the top dose. No active / inactive call. The stated detection limit is 0.0005 µg/ml; values near or below 0.001 µg/ml lie at the floor of the assay.

B1: BD56-622 (protein)
chain 1: QITLKESGPTLVKATQTLTLTCTFSGFSLSTSGEGVGWIRQPPGKALEWLGFIYWNDDKPYSPSLKSRLTITKDTSKNQVVLTMTNMDPVDTATYYCAHTYYYDSRGYALDYWGQGTPVTVSS
chain 2: DIQMTQSPSSVSASVGDRVTITCRASQSIINWLAWYQQKPGKAPKLLIYAASSLQSGVPSRFSGSGSGTDFTLTISSLQPEDFATYYCQQANNFPITFGGGTKVEIK
B2: BD56-624 (protein)
chain 1: QVQLVQSGVEVKKPGSSVKVSCKVSGGTFSSYTITWVRQAPGQGLEWMGRIIPFLGIPNYAQTFQDRVTITADKSTNTAYMELNNLRSEDTAVYYCARDVTDAMAGTLGNNWFDPWGQGTLVTVSS
chain 2: QSVLSQPPSVSGAPGQRVTISCTGSNSNIGAGYDVHWYQQLPGTAPKLLISVNSNRPSGVPDRFSGSKSATSASLAITGLQAEDEADYYCQSYDSSLTQEVFGGGTKLTVL
B3: BD56-625 (protein)
chain 1: QVQLAQSGAEVKQPGSSVKVSCKASGGTFSSYGVTWVRQAPGQGLEWMGRIFPFIGIANYAEKFQGRVTITADKSTSTAYMELSSLRSEDTAVYYCARDSPLCTSTNCFDYWGQGTLVTVSS
chain 2: QSVLTQPPSVSGAPGQRVTISCTGSNSNIGAGYDVHWYQQLPGTAPKLLIYNNNNRPSGVADRFSGSKSGTSASLAIAGLRAEDEADYFCQSYDSSLSDGVFGTGTKVTVL
B4: BD56-626 (protein)
chain 1: QVQLVQSGAEVKKPGASVKVSCQASGYTFTTYTMHWVRQAPGQRLEWMGWINAGNGNTKYSQMFQGRVTITRDTSASTAYMELSRLRSEDTAVYYCATEVTQLAHLIDVWGQGTTVTVSS
chain 2: QSALTQPRSVSGSPGQSVTISCTGTSSDVGDYDYVSWYQQHPGKAPKLMIYDVTKRPSGVPDRFSGSKSGNTASLTISGLQAEDEADFYCCSYAGSYTYVFGTGTKVTVL
B5: DH1196 (protein)
chain 1: QVQLVQSGSELKKPGASVKVSCKASGYTFTSYAMNWVRQAPGQGLEWMGWINTNTGNPTYAQGFTGRFVFSLDTSVSTAYLQISSLKAEDTAVYYCAGGYDFWSGYPNPTDYWGQGTLVTVSS
chain 2: QSVLTQPPSASGTPGQRVTISCSGSSSNIGSNYVYWYQQLPGTAPKLLIYRNNQRPSGVPDRFSGSKSGTSASLAISGLRSEDEADYYCAAWDDSLSGHVFGGGTKLTVL
B6: BD56-629 (protein)
chain 1: EVQLVESGGGLVQPGGSLRLSCAASGFTFSDYDMHWVRQGTGEGLEWVSTIGTSGDTYYPGSVKGRFTISRENAKNSLYLQMNSLRAGDTAVYYCARVNYDSSGYYWYFDLWGRGTLVTVSS
chain 2: DIQMTQSPSSLSASVGDRVTITCRASQSIGRYLNWYQQKPGKAPKVLIYSASSLQSGVPSRFSGSGSGTDFTLTISTLQPEDFATYYCQQSYSSPPWTFAQGTKVEIK
B7: BD56-640 (protein)
chain 1: EVQLVESGGGLVQPGGSLRLSCAASGFMFTTYTMHWVRQAPGKRLEYVSAISSNGGTYYANSVKGRFTIARDNSKNRLYLQMGSLRADDMAVYYCARGEGTATIDYFDYWGQGTLVTVSS
chain 2: SYVLTQPPSVSVAPGQTARITCGGDDIGSKNVHWYQQKPGQAPVLVVFDDSDRPSGIPERFSGSNSGNTATLTIRRVEAGDEADYYCQVWDSSSDPHWVFGGGTKLTVL
B8: BD56-642 (protein)
chain 1: QVTLRESGPALVKPTQTLTLTCTFSGLSLSNTEMYVSWIRQPPGKGLEWLALIDWDDDKYYSTSLRTRLTISRDTSRNQVVLTMTDMDPMDTATYYCARSPSLHDTSGYYFQYYFDLWGQGALVTVSS
chain 2: EIVLTQSPGTLSLSPGERATLSCRASLSVSSSYLAWYQQKPGQAPRLLIYGASSRATGVPDRFSGSGSGTDFTLTVNRLDPEDFAVYYCQQYGGSPLTFGQGTKVEV
B9: BD56-644 (protein)
chain 1: EVHLVESGGGLVQPGGSLRLSCAASGFSFDDYAMHWVRQVPGKGLEWVSGISWNRNTIGYADSVKGRFTISRDNAKNSLYLQMNSLRPEDTALYYCAKDILVASNGDLFDYWGQGTLVTVSS
chain 2: SYVLTQPPSVSVAPGKTARITCGGDNIGSKSVHWYQQKPGQAPLLVIYDDSDRPSGIPERFSGSNSGNTATLTISRVEAGDEADYSCQVRDSSINHPYVFGTGTKVTVL
B10: BD56-646 (protein)
chain 1: EVQLVQFGAEVKKPGESLKISCKGSGYNFTSYWIGWVRQMPGKGLEWMGIIYPGDSDTRYSPSFQGQVTISADKSFSTAYLQWSSLQASDTAMYYCARLVSFDWFADYWGQGTLVTVSS
chain 2: DIVMTQTPLSLSVTPGQPASISCKSSQSLLHSDGTTSLFWYLQKPGQPPQLLIYGVSNRFSGVPDRFSGSGSGTDFTLKISRVEAEDVGVYYCMQNLLLLTWTFGQGTKVEIK
B11: BD56-649 (protein)
chain 1: QVQLVQSGAEVKKPGASVKVSCKASGYTFPSYTMHWVRQAPGQRLEWMGWINAGNGDTQYSQKFQGRVTITRDTSASIAYMELTRLRSEDTAVYYCATEVTQLAHLIDVWGQGTTVTVSS
chain 2: QSALTQPRSVSGSPGQSVTISCTGTSSDVGDYNYVSWYQEHPGKAPKLMIYDVSKRPSGVPDRFSGSKSGNTASLTISGLQAEDEADYYCCSYAGSYTYVFGTGTKVTVL
B12: BD56-650 (protein)
chain 1: QVQLMQSGAEVKKPGSSVKVSCKASGGTFRSYAISWVRQAPGQGLEWMGVIIPVFGTAHYAQKFQGRVAITADKSTSTAYMELSSLRSADTAVYYCAREGLGIVEEDPSTWEGVLDYWGQGTLVTVSS
chain 2: EIVLTQSPGTLSLSPGERATLSCRASQSVSSSSLAWYQQKPGQAPRLVIYGAASRATGIPDRFSGSGSGTDFTLTISRLEPEDFAVYYCQQYGSSPRLTFGGGTKVEIK

How the values were obtained:
Assay in all cases: pseudovirus neutralization IC50; higher = weaker neutralization
[1] = target: SARS-CoV-2 Omicron BA.1 spike pseudovirus
Protocol: (§1)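 Single-round VSV luciferase pseudovirus mixed with antibody dilutions for 1 h and put on Huh-7 cells for about a day; IC50 from the dose curve.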

[2] = target: SARS-CoV-2 Omicron BA.2 spike pseudovirus
Protocol: as §1

[3] = target: SARS-CoV-2 Omicron BA.2.75 spike pseudovirus
Protocol: as §1

[4] = target: SARS-CoV-2 Omicron BA.5 spike pseudovirus
Protocol: as §1

[5] = target: SARS-CoV-2 Omicron BQ.1.1 spike pseudovirus
Protocol: as §1

[6] = target: SARS-CoV-2 Omicron XBB spike pseudovirus
Protocol: as §1

[7] = target: SARS-CoV-2 early D614G spike pseudovirus
Protocol: as §1

Binder | pseudovirus neutralization IC50 [1] [mg/L] | pseudovirus neutralization IC50 [2] [mg/L] | pseudovirus neutralization IC50 [3] [mg/L] | pseudovirus neutralization IC50 [4] [mg/L] | pseudovirus neutralization IC50 [5] [mg/L] | pseudovirus neutralization IC50 [6] [mg/L] | pseudovirus neutralization IC50 [7] [mg/L]
B1 | 1.11 | 1.15 | 1.04 | 1.15 | 2.08 | 4.6 | 1.99
B2 | 0.0262 | 0.0187 | 0.022 | 5.47 | > 10 | 2.47 | 0.042
B3 | 0.0281 | 0.0234 | 0.0315 | 2.22 | > 10 | 1.7 | 0.234
B4 | 8.41 | 8.12 | > 10 | > 10 | > 10 | > 10 | 2.04
B5 | > 10 | > 10 | > 10 | > 10 | > 10 | > 10 | 3.04
B6 | > 10 | > 10 | > 10 | > 10 | > 10 | > 10 | > 10
B7 | 1.31 | 1.27 | 1.25 | 3.95 | > 10 | > 10 | 1.43
B8 | 2.76 | 1.99 | 2.16 | 2.34 | 3.23 | 3.21 | 3.47
B9 | 3.91 | 3.46 | 3.97 | > 10 | > 10 | > 10 | > 10
B10 | 0.301 | 0.229 | 0.261 | 0.212 | > 10 | > 10 | 0.00656
B11 | 0.47 | 0.339 | 0.313 | 7.99 | > 10 | > 10 | 0.205
B12 | > 10 | > 10 | > 10 | > 10 | > 10 | > 10 | > 10
